Data taken from ChEMBL document CHEMBL3988442, “University of Dundee, Small-Polar-MMV Screening Library” (2021).

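Phenotypic screen: M. tuberculosis growth, glucose 7H9 medium, 3 days; the read-out is not stated. Tested at 50 µM. Direction is inferred from retests: higher values go with more growth inhibition. Size under these conditions: about 69,000 compounds, about 760 of them at 50% or above in at least one test.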

Each number is a percent effect as filed.
The controls that fix the scale are not given in the record; negative values are as filed.
The entries come from a sample that favours strong results.
Two or more numbers in one place are separate tests of the same structure; such repeats can differ widely.

compound	Percent Effect
COc1cccc(S(=O)(=O)CCN2CCN(CCO)CC2)c1	22.19
Fc1ccc([C@@H]2COC[C@H]2NCc2cccc(F)c2)cc1.O=C(O)CC(O)(CC(=O)O)C(=O)O	3.941
NC(=O)C1CCN(C(=O)Cc2ccc(Cl)c(Cl)c2)CC1	-14.81
Cc1[nH]ncc1CCCNC(=O)Nc1ccc2c(c1)OC1(CCCC1)O2	9.751 and 34.17
CC(C)N1CC[C@H](c2nc3ccc(C(F)(F)F)cc3[nH]2)C1	-2.745 and 17.79
Cc1cc(C)cc(OCC(=O)N2CCCC2)c1	35.14
CC[C@@H](c1ccccc1)n1c(CCN)n[nH]c1=O	22.69
CCN(CC1CCOC1)C(=O)c1ccc(N(C)C)cc1F (stereo not drawn)	-8.533
CC(C)(NS(C)(=O)=O)C(=O)NCCc1csc2ccccc12	35.56
CCn1cc(CN(C)S(=O)(=O)c2ccc(Cl)cc2)cn1	19.45
CC(=O)Nc1cccc(-c2ccccc2CCN)c1	60.09
O=C(C1CC1)N1CCC(Oc2ccccc2Cl)CC1	31.53 and -0.3964
Cc1csc(N2CCN(C(=O)CCC(=O)c3ccc(C)s3)CC2)n1	35.79
Cc1ccnc(N2Cc3cnn(Cc4ccc(F)cc4)c3C2)n1	36.19
Fc1ccc(OC2CCN(Cc3nnc(-c4ccco4)o3)CC2)cc1	7.472 and 24.1
CCCc1cc(C(=O)N2CC(c3ccncc3)C2)ccn1	18.82
CC(C)(C)Cc1nnc(NCc2ccsc2)o1	53.88
CO[C@@H]1CCN(c2nnc(C)s2)C[C@@H]1Cc1cccc(C)c1.O=C(O)C(F)(F)F	51.3 and 34.61
COc1cc(C(=O)NCCc2cccc(C)c2)on1	41.35
Cc1cnn(CCNCc2nccn2CC(F)(F)F)c1	11.92
CC(C(=O)NCCOc1cccc(Cl)c1)n1cncn1 (stereo not drawn)	-14.68
COc1ccc(CN2C[C@@H](CN(C)C)[C@@H](CO)C2)c(Cl)c1OC	-13.34
Cc1nc(CN(C)C2CCCN(c3cccnn3)C2)nc2ccccc12 (stereo not drawn)	11.96
CCOc1cccc(COC(=O)c2ccc(Cl)cn2)n1	37.23
CNC(=O)NC(=O)CCSc1ccccc1C	-4.019
O=C1N(Cc2ccc(F)c(F)c2)CCCC12CCN(C1CCSCC1)C2 (stereo not drawn)	58.09
CCOC(=O)CNC(=O)NCc1cc(C)n(-c2ccccc2OC)c1C	-15.41
COc1ccc(-c2nc(CN(C)Cc3nncn3C)c(C)o2)c(C)c1C	62.67
CC(=O)c1ccccc1NC(=O)CCN1CCSCC1	-7.621
O=C(NCCN1CCOCC1)c1ccn(-c2ccc3ccccn23)n1.O=C(O)C(F)(F)F	14.96
Cc1ccc(CN2CCC3(CCCN(Cc4ccc(F)c(F)c4)C3)C2)o1 (stereo not drawn)	51.83
COCCN(C/C=C/c1ccccc1)Cc1nccs1	14.41
O=C(NCCCN1CCOCC1)c1ccc(-n2ccc3ccccc32)s1	38.77
O=C1CNc2ncnc(N3CCN(Cc4ccccc4)CC3)c2N1	10.84
CC(C)n1ccc(C(=O)OCC2CC(=O)N(Cc3ccccc3)C2)n1 (stereo not drawn)	13.34
Cc1c(Cl)c(C(F)(F)F)nn1C(C)C(=O)NC1CCN(C)CC1 (stereo not drawn)	30.56
CC(C)(C)c1ncc(C(=O)NC(C(N)=O)c2ccccc2)s1 (stereo not drawn)	-24.89
O=C(O)C(F)(F)F.O=C(O)C(F)(F)F.O=C(O)C(F)(F)F.[H][C@]12C[C@@H](CN3CCCC3)N(C(C)C)[C@@]1([H])CCN(Cc1ccoc1)C2	-13.5 and 71.33
CC(=O)N(c1ccc(C)cc1)c1nc(CN2CCCC(C)C2)cs1 (stereo not drawn)	33.14
CCc1ccc(CN2CCOC(Cc3cccc(F)c3)C2)nc1 (stereo not drawn)	50.41
Cc1cccc(-c2ccc(C(=O)N3CCN(C(C)C)CC3)c(=O)[nH]2)c1	5.196 and -7.551
O=C(CCC(F)(F)F)N1CCCC(CO)(CC2CC2)C1 (stereo not drawn)	51.95 and 41.89
Cc1cccc(C(=O)NCc2ccccc2)n1	38.61
COc1ccc(Cl)cc1NCC(=O)NCCNc1ncccn1	0.6942 and -2.521
Cc1nnc(NC(=O)CN2CCCC(c3ccn[nH]3)C2)s1 (stereo not drawn)	-8.195
CC(NC1(CNC(=O)Cn2cccn2)CCOCC1)c1ccccc1 (stereo not drawn)	19.77
Cc1cn2c(n1)C(CNCC1=Cc3cc(Cl)ccc3OC1)CCC2 (stereo not drawn)	51.44
Cc1ccccc1-n1cc(-c2ccnc(N3CCCC(CN)C3)n2)cn1 (stereo not drawn)	0.06471 and 2.468
COc1ccc(-n2cc(CNC(=O)c3ccccn3)nn2)cc1	65.28 and 1.168
O=C(NC[C@H]1CC[C@H](c2ccnc3ncnn32)CC1)c1ccccn1	10.88
Cc1nc(N)ncc1C(=O)N1CCCC(CCc2ccccc2F)C1 (stereo not drawn)	-17.92 and 4.491
COc1ccc(CN(C(=O)C2CCCO2)c2ccncc2)cc1 (stereo not drawn)	-11.46 and 5.672
CC(C)C(=O)Nc1cccc(OCC(=O)NCc2ccccc2F)c1	18.34
Cc1cc(=O)[nH]c(-n2nc(C3CC3)cc2N)n1	78.46
CN(C)S(=O)(=O)c1ccc(CNc2ccc(Cl)cn2)cc1	5.756
Cc1cnn(CC(C)NCC(=O)Nc2ccc(Cl)cn2)c1 (stereo not drawn)	-11.02 and -3.89
Cc1cc(C)n(-c2nc(NCCCO)c3c4c(sc3n2)CCCC4)n1	60.08
Cn1c(-c2ccccc2Cl)nc2cc(C(=O)NC(CO)CO)cnc21	2.172 and 65.01
CCOC(=O)CCC(=O)N1CCC(CSCc2ccco2)CC1	51.46
CC(C)c1ocnc1C(=O)N1CC(=O)Nc2cccnc21	0.4741 and -8.9
CN(Cc1ccccc1)CC1(O)CCCN(CC(C)(C)C)C1=O (stereo not drawn)	-1.77 and 23.07
COC(=O)C(NC(=O)c1ccc(NC2CC2)nc1)c1ccccc1 (stereo not drawn)	27.73 and 49.27
CC(=O)c1ccc(NC(=O)C(C)Cn2cc(Br)cn2)cc1 (stereo not drawn)	-1.337 and 4.075
O=C(NCC(=O)N1CCc2ccccc2C1)c1cnccn1	-1.805 and 75.85
CSc1nccc(N2CCC3(CCCN(CC4CC4)C3)C2)n1 (stereo not drawn)	-35.64
O=c1c2sccc2nc2n1CCN(Cc1cccs1)CC2	28.36
Cc1cc(NCCCC(F)(F)F)n2nc(C)cc2n1	71.07
COC(CNC(=O)c1cc(C)on1)c1ccccc1C (stereo not drawn)	17.14
O=C(NCC1CC1)c1cnc(-c2ccccc2)nc1	16.81 and 18.23
FC1(F)CCN(Cc2cccnc2)CC12CCN(c1cnccn1)C2.O=C(O)C(F)(F)F.O=C(O)C(F)(F)F.O=C(O)C(F)(F)F (stereo not drawn)	19.47
COc1cn(-c2ccccc2)nc1C(=O)NCCCN1CCCC(C)C1 (stereo not drawn)	8.589
COCC1CCN(c2nc(C(C)(C)C)nc3c2cnn3C)C1 (stereo not drawn)	47.83